Pooled drug test results. Numbers come from NIAID ChemDB, via PubChem.

Shared fields: growth or infection tests; organism: Mycobacterium tuberculosis

An empty or dashed field is not shown. Inhibition is in % at the dose shown (toxicity tests: loss of growth or viability). ECn: concentration that inhibits the pathogen or its effect by n%. MIC bound comes from a single tested concentration. Lines come from different laboratories, so protocols vary.

smiles	strain	read by	cell line	endpoint	mutations	tested at	setting	value
CO[C@H]1/C=C/O[C@@]2(C)Oc3c(C)c(O)c4c(O)c(c(/C=N/N5CCN(C)CC5)c(O)c4c3C2=O)NC(=O)/C(C)=C\C=C\[C@H](C)[C@H](O)[C@@H](C)[C@@H](O)[C@@H](C)[C@H](OC(C)=O)[C@@H]1C	234/2005	-	-	MIC	-	-	-	>9.7 µM
CC1COc2c(N3CCN(C)CC3)c(F)cc3c(=O)c(C(=O)O)cn1c23	17003	resazurin	-	MIC	Ethambutol-resistant	-	-	0.14 µM
Cc1ccc2c(c1)OCC1(CC(C)(C)c3cc(C)ccc3O1)C2(C)C	H37Rv	BACTEC	-	MIC bound	-	-	-	>6.25 µg/mL
O=C(O)c1c2n(c3cc(F)c(N4CCC(O)(c5ccc(Cl)cc5)CC4)cc3c1=O)CS2	H37Rv	agar	-	MIC	-	-	-	3.38 µM
COc1ccccc1NC(=O)C1=C(C)NC(C)=C(C(=O)Nc2ccccc2OC)C1c1cccc([N+](=O)[O-])c1	H37Rv	-	-	EC50	-	-	-	<2.5 µg/mL
O=c1[nH]c2cc([N+](=O)[O-])ccc2c(O)c1N=Nc1ccc(F)cc1	H37Rv	resazurin	-	MIC	-	-	-	<6.25 µg/mL
O=C(NNS(=O)(=O)c1ccccc1)c1ccco1	H37Rv	BACTEC	-	MIC bound	-	-	-	>12.5 µg/mL
O=c1[nH]c2c([N+](=O)[O-])cccc2c(O)c1N=Nc1cccc(Cl)c1	H37Rv	resazurin	-	inhibition	-	6.25 µg/mL	-	82%
COc1cccc2c1C(=O)c1c(O)c3c(c(O)c1C2=O)C[C@@](O)(C(=O)COC(=O)c1cccnc1)C[C@@H]3O[C@H]1C[C@H](N)[C@H](O)[C@H](C)O1	H37Rv	BACTEC	-	inhibition	-	12.5 µg/mL	-	24%
CC1(C)[C@H](C(=O)O)N2C(=O)C[C@H]2S1(=O)=O	Isolate 1	-	-	MIC	-	-	-	>16 µg/mL
CC(=O)c1cc([N+](=O)[O-])c2ncccc2c1C1CCCCC1	H37Rv	-	-	inhibition	-	6.25 µg/mL	-	12%
CC1=C(C(=O)Nc2ccc(F)cc2)C(c2ccc(Cl)cc2)C(C(=O)Nc2ccc(F)cc2)=C(C)N1	H37Rv	-	-	MIC	-	-	-	>6.25 µg/mL
CCN(CC)CC(=O)O[C@]1(CC)C(=O)OCc2c1cc1n(c2=O)Cc2cc3ccccc3nc2-1.Cl	H37Rv	BACTEC	-	inhibition	-	12.5 µg/mL	-	16%
CC(C)CCc1ccc(Oc2ccc(Cl)cc2Cl)c(O)c1	Clinical isolate 12081	-	-	MIC	-	-	-	240 µM
Cc1c(C(N)=O)c(-c2ccccc2)c(-c2ccccc2)n1Nc1ccccc1	H37Rv	BACTEC	-	inhibition	-	12.5 µg/mL	-	-10%
C[C@]1(COc2ccc(N3CCC(Oc4ccc(OC(F)(F)F)cc4)CC3)cc2)Cn2cc([N+](=O)[O-])nc2O1	H37Ra	-	-	MIC	-	-	-	0.006 µg/mL
C=C(C)[C@@H]1CC[C@]2(C)CCC3(C)[C@H](CC[C@@H]4[C@@]5(C)CC[C@H](O)C(C)(C)[C@@H]5CC[C@]43C)[C@@H]12	H37Rv	BACTEC	VERO	MIC	-	-	-	12.5 µg/mL
O=[N+]([O-])c1ccc(C2Nc3ccccc3S2)cc1	H37Rv	-	-	MIC	-	-	-	>200 µg/mL
CSc1ccc(C2C(C(=O)Nc3ccccc3Cl)=C(C)NC(C)=C2C(=O)Nc2ccccc2Cl)cc1	H37Rv	-	-	inhibition	-	2.5 µg/mL	-	78%
Cc1ccc(-c2noc(C3=CC4(CCN(CC5CCCO5)CC4)c4ccccc43)n2)cn1	136570	resazurin	-	MIC	Streptomycin-resistant	-	-	1.56 µM
O=C(O)c1c2n(c3cc(F)c(N4CCN(C(c5ccccc5)c5ccc(Cl)cc5)CC4)cc3c1=O)CS2	H37Rv	agar	-	MIC	-	-	-	11.66 µM
CC1=C(C(=O)Nc2cccc(Cl)c2)C(c2ccc(Cl)cc2)C(C(=O)Nc2cccc(Cl)c2)=C(C)N1	H37Rv	-	-	MIC	-	-	-	>12.5 µg/mL
CC1OC(n2ccc(NC(=O)c3ccc(NC(=O)C(C)(N)CO)cc3)nc2=O)CCC1OC1OC(C)C(N(C)C)C(O)C1O	H37Rv	BACTEC	-	MIC	-	-	-	1.6 µg/mL
CN[C@@H]1[C@H](O[C@H]2[C@H](O[C@H]3[C@H](O)[C@@H](O)[C@H](N=C(N)N)[C@@H](O)[C@@H]3N=C(N)N)O[C@@H](C)[C@]2(O)C=O)O[C@@H](CO)[C@H](O)[C@H]1O	Beijing (E-47/94)	resazurin	-	MIC	Drug-resistant	-	-	0.5 µM
O=C(Nc1ccc(C2=NCC(O)CN2)cc1)c1ccc(C(=O)Nc2ccc(C3=NCC(O)CN3)cc2)cc1	H37Rv	BACTEC	-	inhibition	-	12.5 µg/mL	-	99%
N#Cc1cncc(-n2cncn2)n1	Ethionamide-resistant	-	-	MIC	-	-	-	500 µg/mL
C[C@@H]1Cn2cc(C(=O)O)c(=O)c3cc(F)c(N4CCN(/C(N)=N/C(N)=NCCCCCCN=C(N)/N=C(\N)N5CCN(c6c(F)cc7c(=O)c(C(=O)O)cn8c7c6O[C@@H](C)C8)CC5)CC4)c(c32)O1	H27Rv	broth dilution	-	MIC	-	-	-	1.25 µg/mL
Cc1ccc(Cn2nnc(-c3cc([N+](=O)[O-])cc([N+](=O)[O-])c3)n2)cc1	Praha 4	-	-	MIC	-	-	14 d	0.125 µM
O=C1N(Cc2ccccc2)CCN1Cc1ccccc1	H37Rv	BACTEC	-	inhibition	-	12.5 µg/mL	-	38%
FC(F)(F)c1ccc2c(c1)NC(c1cccnc1)S2	H37Rv	-	-	MIC	-	-	-	3.1 µg/mL
Nc1cccc2c(C3CCCCC3)cc(C3CCCCC3)nc12	H37Rv	-	-	inhibition	-	6.25 µg/mL	-	0%
CC1=C(C(=O)Nc2ccc(F)cc2)C(c2ccc(O)cc2)C(C(=O)Nc2ccc(F)cc2)=C(C)N1	H37Rv	-	-	MIC	-	-	-	>6.25 µg/mL
CO[C@H]1/C=C/O[C@@]2(C)Oc3c(C)c(O)c4c(=O)c(c5oc6cc(N7CCN(CC(C)C)CC7)cc(=O)c6nc5c4c3=C2O)NC(=O)/C(C)=C\C=C\[C@H](C)[C@H](O)[C@@H](C)[C@@H](O)[C@@H](C)[C@H](OC(C)=O)[C@@H]1C	2242 (rifampicin-susceptible)	-	-	MBC	-	-	-	0.03 µg/mL
CCOc1ccc2ccccc2c1C(=O)N[C@@H]1C(=O)N2[C@@H]1SC(C)(C)[C@@H]2C(=O)O	H37Ra	-	-	MIC	-	-	-	>16 µg/mL
O=C(CNNC(=S)Nc1cccc2ccccc12)c1cccc2c1Nc1ccccc1S2	H37Rv	BACTEC	-	inhibition	-	12.5 µg/mL	-	82%
O=[N+]([O-])c1cccc2c(C3CCCC3)cc(C3CCCC3)nc12	H37Rv	-	-	MIC	-	-	-	6.25 µg/mL
CN(C)c1ccc(/C=c2\sc3nc(=O)c(-c4ccccc4NC(=O)C(F)(F)F)nn3c2=O)cc1	H37Rv	BACTEC	-	inhibition	-	12.5 µg/mL	-	11%
NNC(=O)c1ccncc1	M5	resazurin	-	MIC	MDR	-	-	>2 µg/mL
COc1cccc(N=Nc2c(-c3ccccc3)nn(C(=S)S)c2C)c1	H37Rv	BACTEC	-	inhibition	-	12.5 µg/mL	-	75%
CC[C@@H](CO)NCCN[C@@H](CC)CO	ATCC 2794	resazurin	-	MIC	Drug-resistant	-	-	1.2 µM
CS(=O)(=O)O.O=C(OC1C2C=COC(OC3OC(CO)C(O)C(O)C3O)C2C2(CO)OC12)c1ccc(O)cc1	H37Rv	BACTEC	-	MIC bound	-	-	-	>12.5 µg/mL
COc1cccc2c1NC(c1ccccn1)S2	H37Rv	-	-	MIC	-	-	-	1.9 µg/mL
O=C1NC(=O)c2nccnc21	H37Rv	BACTEC	-	MIC bound	-	-	-	>12.5 µg/mL
Cn1ccc(-c2noc(C3=CC4(CCN(CC5CCCO5)CC4)c4ccccc43)n2)n1	H37Rv	resazurin	-	MIC	-	-	-	>100 µM
CCCCCOc1c(C(C)=O)cc([N+](=O)[O-])c2nccc(CC)c12	H37Rv	-	-	MIC	-	-	-	>6.25 µg/mL
O=C(O)c1c2n(c3cc(F)c(N4CCC5(CC4)OCCO5)cc3c1=O)CS2	H37Rv	agar	-	MIC	MDR-TB	-	-	0.99 µM
COc1ccc(-c2noc(C3=CC4(CCN(CC5CCCO5)CC4)c4ccccc43)n2)cc1	D-211	resazurin	-	MIC	Drug-resistant	-	-	0.39 µM
CCCOc1cc2oc3cc(O)c(CCC(C)C)c(O)c3c(=O)c2c(CCC(C)C)c1OC	M27	resazurin	-	MIC	MDR	-	-	3.12 µg/mL
NC(=O)c1cncc(-n2cncn2)n1	Ethionamide-resistant	-	-	MIC	-	-	-	1000 µg/mL
CC(C)N=c1cc2n(-c3ccc(Cl)cc3)c3ccccc3nc-2cc1Nc1ccc(Cl)cc1	Praha 4	-	-	MIC	-	-	-	0.53 µM
CC(=O)N1Cc2c(N)nc(N)nc2C1C	H37Rv	BACTEC	-	inhibition	-	12.5 µg/mL	-	-10%
CC1COc2c(N3CCN(C)CC3)c(F)cc3c(=O)c(C(=O)O)cn1c23	Canettii	resazurin	-	MIC	-	-	-	0.5 µg/mL
COc1ccc(N=Nc2c(O)c3cc(Cl)ccc3[nH]c2=O)cc1	H37Rv	resazurin	-	MIC	-	-	-	<6.25 µg/mL
COC(=O)c1cncc(N2CC(C)OC(C)C2)n1	H37Rv	-	-	MIC	-	-	-	500 µg/mL
CCOc1cc2oc3cc(O)c(CCC(C)C)c(O)c3c(=O)c2c(CCC(C)C)c1OC	M-4	resazurin	-	MIC	-	-	-	1.56 µg/mL
C[N+]1(CCO)CC[N+](C)(CCCN2c3ccccc3Sc3ccc(Cl)cc32)CC1.[I-].[I-]	H37Rv	BACTEC	-	inhibition	-	12.5 µg/mL	-	10%
O=c1[nH]c2c([N+](=O)[O-])cccc2c(O)c1N=Nc1ccc(Cl)cc1	H37Rv	resazurin	-	MIC	-	-	-	<6.25 µg/mL
NC(N)=N/N=C1\C(=O)N(C2CCCCCC2)C(=O)C1C(=O)NC1CCCCCC1	H37Rv	BACTEC	-	MIC bound	-	-	-	>12.8 µg/mL
COc1cnc2ccc(=O)n(CCN3CCC(NCc4cc(Cl)c(Cl)cn4)CC3)c2c1	Erdman	resazurin	-	MIC	-	-	-	0.04 µg/mL
CC(=O)Oc1cc2oc3cc(O)c(CCC(C)C)c(O)c3c(=O)c2c(CCC(C)C)c1C(C)=O	H37Ra	resazurin	-	MIC	-	-	-	6.25 µg/mL
CC1CN(c2cncc(C(N)=S)n2)CC(C)O1	H37Rv	-	-	MIC	-	-	-	62.5 µg/mL
CN1CC[C@]23c4ccccc4N[C@@H]1[C@]21CCN(C)[C@@H]3Nc2ccccc21	H37Rv	BACTEC	-	MIC	-	-	-	≥12.8 µg/mL
CSc1ccc(C2C(C(=O)Nc3ccccc3)=C(C)NC(C)=C2C(=O)Nc2ccccc2)cc1	H37Rv	-	-	EC50	-	-	-	<2.5 µg/mL
Oc1cc(-c2ccccc2)ccc1Oc1ccc(Cl)cc1Cl	H37Rv	-	-	MIC	-	-	-	27 µM
CC(=O)c1cc(N)c2ncccc2c1C1CCCC1	H37Rv	-	-	inhibition	-	6.25 µg/mL	-	24%
CC(C)(C)NC(=O)C1c2ccccc2CCN1c1cc2c(=O)c(C(=O)O)c3n(c2cc1[N+](=O)[O-])CS3	H37Rv	agar	-	MIC	-	-	-	3.07 µM
O=c1[nH]c2c(Cl)c(Cl)ccc2c(O)c1N=Nc1cccc(Cl)c1	H37Rv	resazurin	-	inhibition	-	6.25 µg/mL	-	82%
O=C(O)c1cn2c(n1)CN(c1cc3c(=O)c(C(=O)O)c4n(c3cc1[N+](=O)[O-])CS4)CC2	H37Rv	agar	-	MIC	MDR-TB	-	-	0.09 µM
O=C(O)[C@H]1/C(=C/CO)O[C@@H]2CC(=O)N21	Isolate 1	-	-	MIC	-	-	-	>16 µg/mL
O=C(O)c1c2n(c3cc([N+](=O)[O-])c(N4CCN(C(c5ccccc5)c5ccc(Cl)cc5)CC4)cc3c1=O)CS2	H37Rv	agar	-	MIC	-	-	-	5.56 µM
CC(=O)OCC1=C(C(=O)O)N2C(=O)[C@@H](NC(=O)Cc3cccs3)[C@H]2SC1	Isolate 4	-	-	MIC	-	-	-	>16 µg/mL
CN1C/C(=C\c2ccc(Cl)cc2)C(=O)/C(=C/c2ccc(Cl)cc2)C1	H37Rv	BACTEC	-	MIC bound	-	-	-	>12.5 µg/mL
CCOc1cc2oc3cc(OCC)c(C(C)=O)c(CC=C(C)C)c3c(=O)c2c(O)c1CC=C(C)C	H37Ra	resazurin	-	MIC	-	-	-	>200 µg/mL
c1c[nH]c(C2Nc3ccccc3S2)c1	H37Rv	-	-	MIC	-	-	-	0.6 µg/mL
CC(C)(C)c1ccc(CN2CCC3(CC2)C(=O)Nc2ccccc23)cc1	ss18b	resazurin	-	EC80	-	-	-	50 µM
CC1=C(C(=O)Nc2cccc(C(F)(F)F)c2)C(c2cccc(O)c2)C(C(=O)Nc2cccc(C(F)(F)F)c2)=C(C)N1	H37Rv	-	-	MIC	-	-	-	>6.25 µg/mL
CCCCCCOc1c(C(C)=O)cc([N+](=O)[O-])c2nccc(CC)c12	H37Rv	-	-	inhibition	-	6.25 µg/mL	-	76%
COC(=N)C1(C#N)NC(c2ccsc2)C(C#N)(C#N)NC1c1ccsc1	H37Rv	resazurin	-	MIC bound	-	-	-	>6.25 µg/mL
CC1=C(C(=O)Nc2ccc([N+](=O)[O-])cc2)C(c2ccc(Cl)cc2Cl)C(C(=O)Nc2ccc([N+](=O)[O-])cc2)=C(C)N1	H37Rv	-	-	inhibition	-	2.5 µg/mL	-	96%
CC(=O)c1ccc(N=Nc2c(O)c3cc(Cl)ccc3[nH]c2=O)cc1	H37Rv	resazurin	-	inhibition	-	6.25 µg/mL	-	29%
O=C(O)c1c2n(c3cc(F)c(N4CCN(C(=O)C5COc6ccccc6O5)CC4)cc3c1=O)CS2	H37Rv	agar	-	MIC	-	-	-	6.29 µM
CCOc1cc2oc3cc(O)c(CCC(C)C)c(O)c3c(=O)c2c(CCC(C)C)c1C(C)=O	H37Ra	resazurin	-	MIC	-	-	-	1.56 µg/mL